# Results as given in article doi:10.1101/249060 (bioRxiv, 2018).
# B1: PrcA, α-subunit of the Mycobacterium tuberculosis 20S core particle (natural protein)
# chain: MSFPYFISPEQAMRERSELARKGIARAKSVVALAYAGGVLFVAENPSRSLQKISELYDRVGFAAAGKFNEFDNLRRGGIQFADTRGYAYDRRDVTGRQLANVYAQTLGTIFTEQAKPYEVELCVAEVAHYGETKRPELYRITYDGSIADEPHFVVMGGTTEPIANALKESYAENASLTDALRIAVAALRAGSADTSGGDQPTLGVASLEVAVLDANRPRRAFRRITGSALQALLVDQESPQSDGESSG
# Target: the molecule itself
# Test: cryo-EM structure
protein,measurement,value
B1,stoichiometry N,7
